Assay results taken from article PMC9168620, “Genetic validation of Aspergillus fumigatus phosphoglucomutase as a viable therapeutic target in invasive aspergillosis” (The Journal of Biological Chemistry, 2022).

Protein sequences, listed by entry. Tags and fused reporters are not part of them.
UniProt Q4WY53, whole entry: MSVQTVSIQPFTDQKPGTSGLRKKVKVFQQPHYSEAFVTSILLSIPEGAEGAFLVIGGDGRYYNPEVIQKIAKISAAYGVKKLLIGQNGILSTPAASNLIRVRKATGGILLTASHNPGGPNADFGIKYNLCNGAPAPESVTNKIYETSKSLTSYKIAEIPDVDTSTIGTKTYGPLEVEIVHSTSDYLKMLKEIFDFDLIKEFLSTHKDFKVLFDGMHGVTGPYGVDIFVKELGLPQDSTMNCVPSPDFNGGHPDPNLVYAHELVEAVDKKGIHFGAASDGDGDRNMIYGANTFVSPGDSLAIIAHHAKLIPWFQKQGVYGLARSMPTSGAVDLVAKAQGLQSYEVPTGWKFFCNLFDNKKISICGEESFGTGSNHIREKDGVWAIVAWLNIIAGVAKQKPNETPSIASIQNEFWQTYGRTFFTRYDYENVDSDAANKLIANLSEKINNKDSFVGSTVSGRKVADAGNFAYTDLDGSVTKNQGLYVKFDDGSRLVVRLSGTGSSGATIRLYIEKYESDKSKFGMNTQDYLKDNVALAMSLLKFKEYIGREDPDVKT
UniProt Q4WY53, whole entry C131S/C242S/C364S: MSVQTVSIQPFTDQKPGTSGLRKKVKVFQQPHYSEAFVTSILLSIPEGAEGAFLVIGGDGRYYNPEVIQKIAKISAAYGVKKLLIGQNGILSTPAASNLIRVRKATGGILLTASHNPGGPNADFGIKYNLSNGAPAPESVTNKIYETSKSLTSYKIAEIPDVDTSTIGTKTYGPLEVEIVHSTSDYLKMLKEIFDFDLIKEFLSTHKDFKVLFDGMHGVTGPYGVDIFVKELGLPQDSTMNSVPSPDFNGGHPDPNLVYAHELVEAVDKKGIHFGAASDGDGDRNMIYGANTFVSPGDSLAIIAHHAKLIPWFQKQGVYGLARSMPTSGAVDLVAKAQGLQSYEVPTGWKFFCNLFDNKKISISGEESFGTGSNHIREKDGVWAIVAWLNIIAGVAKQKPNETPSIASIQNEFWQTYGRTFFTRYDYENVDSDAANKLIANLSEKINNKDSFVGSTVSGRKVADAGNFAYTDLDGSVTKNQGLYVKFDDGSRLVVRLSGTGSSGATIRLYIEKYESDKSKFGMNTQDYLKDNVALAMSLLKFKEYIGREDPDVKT

Legend:
AfPGM = AfPGM (Aspergillus fumigatus, UniProt Q4WY53); settings: read-out: IC50 AfPGM; WT AfPGM 5 nM, no preincubation, 500 μM Glc-1P
AfPGMC353∗ = AfPGMC353∗ (Aspergillus fumigatus, UniProt Q4WY53, C131S/C242S/C364S); experiment: G6PDH coupled assay for PGM, AfPGMC353∗ variant (C353 the sole cysteine); type: biochemical; settings: read-out: IC50 AfPGMC353; AfPGMC353∗ (all other cysteines mutated to serine) 5 nM, no preincubation

Structure (SMILES)	IC50 (AfPGM)	IC50 (AfPGMC353∗)
COC(=O)c1ccc(-n2sccc2=O)cc1	2 µM	5.7 µM
CCOC(=O)c1ccc(-n2sccc2=O)cc1	2 µM	9.8 µM
O=c1ccsn1-c1ccc(F)c(Cl)c1	3.7 µM	8.8 µM
O=c1ccsn1-c1ccccc1	20 µM	21 µM
O=c1ccsn1-c1cccc(C(F)(F)F)c1	9 µM	10 µM
Cn1sccc1=O	> 400 µM	
